# Results reported in patent US20220089698A1, “ANTIBODIES THAT TARGET HIV GP120 AND METHODS OF USE” (published 2022).
# B1: Antibody A-1 (antibody, human IgG1, kappa)
# heavy: QVQLLQSGAAVTKPGASVRVSCEASGYNIRDYFIHWWRQAPGQGLQWVGWINPKTGQPNNPRQFQGRVSLTRHASWDFDTFSFYMDLKALRSDDTAVYFCARQRSDYWDFDVWGSGTQVTVSSASTKGPSVFPLAPSSKSTSGGTAALGCLVKDYFPEPVTVSWNSGALTSGVHTFPAVLQSSGLYSLSSVVTVPSSSLGTQTYICNVNHKPSNTKVDKKVEPKSCDKTHTCPPCPAPELLAGPDVFLFPPKPKDTLMISRTPEVTCVVVDVSHEDPEVKFNWYVDGVEVHNAKTKPREEQYNSTYRVVSVLTVLHQDWLNGKEYKCKVSNKALPLPEEKTISKAKGQPREPQVYTLPPSREEMTKNQVSLTCLVKGFYPSDIAVEWESNGQPENNYKTTPPVLDSDGSFFLYSKLTVDKSRWQQGNVFSCSVLHEALHSHYTQKSLSLSPGK
# light: not shown
# What was measured:
# Test in all cases: cell-based or functional assay
# [1] = target: HIV-1 envelope glycoprotein (Env, gp120) of virus 8110 (HIV-1)
# [2] = target: HIV-1 envelope glycoprotein (Env, gp120) of virus 7576 (HIV-1)
# [3] = target: HIV-1 envelope glycoprotein (Env, gp120) of virus 8117 (HIV-1)
# [4] = target: HIV-1 envelope glycoprotein (Env, gp120) of virus VS044 (HIV-1)
# [5] = target: HIV-1 envelope glycoprotein (Env, gp120) of virus 7595 (HIV-1)
# [6] = target: HIV-1 envelope glycoprotein (Env, gp120) of virus 1012 (HIV-1)
# [7] = target: HIV-1 envelope glycoprotein (Env, gp120) of virus 7467 (HIV-1)
# [8] = target: HIV-1 envelope glycoprotein (Env, gp120) of virus VS049 (HIV-1)
# [9] = target: HIV-1 envelope glycoprotein (Env, gp120) of virus 92US657 (HIV-1)
# [10] = target: HIV-1 envelope glycoprotein (Env, gp120) of virus VS043 (HIV-1)
# [11] = target: HIV-1 envelope glycoprotein (Env, gp120) of virus THRO (HIV-1)
# [12] = target: HIV-1 envelope glycoprotein (Env, gp120) of virus 8106 (HIV-1)
# [13] = target: HIV-1 envelope glycoprotein (Env, gp120) of virus 7552 (HIV-1)
# [14] = target: HIV-1 envelope glycoprotein (Env, gp120) of virus 8134 (HIV-1)
# [15] = target: HIV-1 envelope glycoprotein (Env, gp120) of virus 1489 (HIV-1)
# [16] = target: HIV-1 envelope glycoprotein (Env, gp120) of virus 7015 (HIV-1)
# [17] = target: HIV-1 envelope glycoprotein (Env, gp120) of virus VS001 (HIV-1)
# [18] = target: HIV-1 envelope glycoprotein (Env, gp120) of virus 1413 (HIV-1)
# [19] = target: HIV-1 envelope glycoprotein (Env, gp120) of virus VS004 (HIV-1)
# [20] = target: HIV-1 envelope glycoprotein (Env, gp120) of virus VS026 (HIV-1)
# [21] = target: HIV-1 envelope glycoprotein (Env, gp120) of virus 7051 (HIV-1)
# [22] = target: HIV-1 envelope glycoprotein (Env, gp120) of virus VS042 (HIV-1)
# [23] = target: HIV-1 envelope glycoprotein (Env, gp120) of virus 92HT593 (HIV-1)
# [24] = target: HIV-1 envelope glycoprotein (Env, gp120) of virus 7103 (HIV-1)
# [25] = target: HIV-1 envelope glycoprotein (Env, gp120) of virus 7714 (HIV-1)
# [26] = target: HIV-1 envelope glycoprotein (Env, gp120) of virus VS039 (HIV-1)
# [27] = target: HIV-1 envelope glycoprotein (Env, gp120) of virus 8320 (HIV-1)
# [28] = target: HIV-1 envelope glycoprotein (Env, gp120) of virus 92US712 (HIV-1)
# [29] = target: HIV-1 envelope glycoprotein (Env, gp120) of virus 8318 (HIV-1)
# [30] = target: HIV-1 envelope glycoprotein (Env, gp120) of virus 8176 (HIV-1)
# [31] = target: HIV-1 envelope glycoprotein (Env, gp120) of virus VS017 (HIV-1)
# [32] = target: HIV-1 envelope glycoprotein (Env, gp120) of virus 302076 (HIV-1)
# [33] = target: HIV-1 envelope glycoprotein (Env, gp120) of virus REJO (HIV-1)
# [34] = target: HIV-1 envelope glycoprotein (Env, gp120) of virus 7141 (HIV-1)
# [35] = target: HIV-1 envelope glycoprotein (Env, gp120) of virus VS046 (HIV-1)
# [36] = target: HIV-1 envelope glycoprotein (Env, gp120) of virus VS030 (HIV-1)
# [37] = target: HIV-1 envelope glycoprotein (Env, gp120) of virus CHO77 (HIV-1)
# [38] = target: HIV-1 envelope glycoprotein (Env, gp120) of virus 92US727 (HIV-1)
binder,measurement,setting,value
B1,Virus Neutralization Potency,[1],3.64 mg/L
same,Virus Neutralization Potency,[2],0.69 mg/L
same,Virus Neutralization Potency,[3],0.86 mg/L
same,Virus Neutralization Potency,[4],0.18 mg/L
same,Virus Neutralization Potency,[5],4.88 mg/L
same,Virus Neutralization Potency,[6],1.41 mg/L
same,Virus Neutralization Potency,[7],0.04 mg/L
same,Virus Neutralization Potency,[8],39.5 mg/L
same,Virus Neutralization Potency,[9],0.38 mg/L
same,Virus Neutralization Potency,[10],0.79 mg/L
same,Virus Neutralization Potency,[11],2.8 mg/L
same,Virus Neutralization Potency,[12],2.72 mg/L
same,Virus Neutralization Potency,[13],12 mg/L
same,Virus Neutralization Potency,[14],1.57 mg/L
same,Virus Neutralization Potency,[15],0.12 mg/L
same,Virus Neutralization Potency,[16],0.53 mg/L
same,Virus Neutralization Potency,[17],0.06 mg/L
same,Virus Neutralization Potency,[18],5.31 mg/L
same,Virus Neutralization Potency,[19],2.66 mg/L
same,Virus Neutralization Potency,[20],0.11 mg/L
same,Virus Neutralization Potency,[21],0.79 mg/L
same,Virus Neutralization Potency,[22],2.53 mg/L
same,Virus Neutralization Potency,[23],0.27 mg/L
same,Virus Neutralization Potency,[24],0.76 mg/L
same,Virus Neutralization Potency,[25],4.2 mg/L
same,Virus Neutralization Potency,[26],0.12 mg/L
same,Virus Neutralization Potency,[27],2.2 mg/L
same,Virus Neutralization Potency,[28],0.06 mg/L
same,Virus Neutralization Potency,[29],0.27 mg/L
same,Virus Neutralization Potency,[30],0.26 mg/L
same,Virus Neutralization Potency,[31],0.7 mg/L
same,Virus Neutralization Potency,[32],0.08 mg/L
same,Virus Neutralization Potency,[33],0.01 mg/L
same,Virus Neutralization Potency,[34],2.32 mg/L
same,Virus Neutralization Potency,[35],0.04 mg/L
same,Virus Neutralization Potency,[36],2.04 mg/L
same,Virus Neutralization Potency,[37],0.04 mg/L
same,Virus Neutralization Potency,[38],2.43 mg/L
